Measured values from several laboratories, pooled; numbers as filed in NIAID ChemDB.

Common to all: whole-cell or culture tests; organism: Candida albicans; endpoint: MIC

Blank or dashed fields: not listed here. Rows are shuffled and stem from different studies.

c1ccc(C(c2ccn(-c3ccccc3)c2)n2ccnc2)cc1 ; value: 2.3 µg/mL
CCCCCCCCOc1ccc(C(=O)NC2C[C@@H](O)[C@@H](O)NC(=O)C3[C@@H](O)[C@@H](C)CN3C(=O)C(C(C)O)NC(=O)C([C@H](O)[C@@H](O)c3ccc(O)cc3)NC(=O)C3C[C@@H](O)CN3C(=O)C(C(C)O)NC2=O)cc1 ; strain or isolate: MY1750 ; value: 1 µg/mL
C[C@H]1[C@H](O)[C@@H](C)/C=C/C=C/C=C/C=C/C=C/C=C/C=C/[C@H](O[C@@H]2O[C@H](C)[C@@H](O)[C@H](N)[C@@H]2O)C[C@@H]2O[C@](O)(C[C@@H](O)C[C@@H](O)CC[C@H](O)[C@@H](O)C[C@@H](O)CC(=O)O[C@H]1C)C[C@H](O)[C@H]2C(=O)O ; strain or isolate: B311 (drug-resistant) ; value: 0.5 µg/mL
Clc1ccc(C(c2c[nH]cc2-c2ccc(-c3ccccc3)cc2)n2ccnc2)c(Cl)c1 ; value: 4.3 µg/mL
CC(C)N=C(N)c1ccc2nc(-c3ccc4c(c3)Cc3cc(-c5nc6ccc(C(N)=NC(C)C)cc6[nH]5)ccc3-4)[nH]c2c1 ; strain or isolate: Isolate CA783 ; value: 1.56 µg/mL
O/N=C(\c1ccccc1)c1oc2ccc(Cl)cc2c1Cn1cncn1 ; strain or isolate: Clinical isolate ; value: 25 µg/mL
O=[N+]([O-])c1ccc(-c2c[nH]cc2C(c2ccc(Cl)cc2Cl)n2ccnc2)cc1 ; value: 4.5 µg/mL
O=[n+]1c(Sc2ccccc2)c(CBr)n([O-])c2ccccc21 ; strain or isolate: Clinical isolate 24 ; value: 31.25 µg/mL
c1ccc(-c2csc(N3N=C(c4cccs4)CC3c3ccc4c(c3)OCO4)n2)cc1 ; strain or isolate: Clinical isolates ; value: 250 µg/mL
CN(CCCC#CC(C)(C)C)c1cccc2c1CCC(=O)N2 ; strain or isolate: Clinical isolate 3 ; value: 15.6 µg/mL
CCCC(O)C/C=C\C=C\C(=O)OC[C@H]1O[C@@H](O[C@@H]2[C@H](OC(=O)/C=C/C=C/CC(O)/C(C)=C/C=C/CCC(C)CC)[C@@H](O)[C@]3(OCc4cc(O)cc(O)c43)O[C@@H]2CO)[C@H](O)[C@@H](O)[C@H]1O ; strain or isolate: MY1028 ; value: 2 µg/mL
CC(N1CCN(c2ccc(-n3cnnn3)cc2)C1=O)[C@@](O)(Cn1cncn1)c1ccc(F)cc1F ; strain or isolate: TIMM1756 ; value: >16 µg/mL
Cc1c(/C(=N/O)c2ccccc2)oc2ccc(Cl)cc12 ; strain or isolate: NRRL Y-27077 ; value: 5 µg/mL
C[C@@H](N1CCN(c2ccc(-n3cnnn3)cc2)C1=O)[C@](O)(Cn1cncn1)c1ccc(F)cc1F ; strain or isolate: IFO 0583 ; value: 1 µg/mL
CCn1cc(-c2ccc(Cl)cc2)c(C(c2ccccc2)n2ccnc2)c1 ; value: 0.11 µg/mL
Cc1c(S(=O)(=O)c2ccccc2)[n+](=O)c2cc(Cl)ccc2n1[O-] ; strain or isolate: Clinical isolate 3 ; value: 62.5 µg/mL
O=C(c1ccc(Cl)cc1)c1oc2ccccc2c1Cn1ccnc1 ; strain or isolate: Clinical isolate ; value: 25 µg/mL
COc1ccc(C2CC(c3cccs3)=NN2c2nc(-c3ccc(C)cc3)cs2)cc1 ; strain or isolate: Clinical isolates ; value: 62.5 µg/mL
Fc1ccc(-n2ccc(C(c3ccccc3)n3ccnc3)c2)cc1 ; value: 4.1 µg/mL
CC[N+]([O-])(CC)CCCC(C)=CCC/C(C)=C/CCC=C(C)CC/C=C(\C)CCC[N+]([O-])(CC)CC ; strain or isolate: S9 ; value: 100 µg/mL
COc1ccc2c(C)c(C(=O)c3ccccc3)oc2c1 ; strain or isolate: Clinical isolate ; value: 25 µg/mL
Clc1ccc(-c2c[nH]cc2C(c2ccc(Cl)cc2Cl)n2ccnc2)cc1 ; value: 0.92 µg/mL
Cc1ccc(-c2csc(N3N=C(c4cccs4)CC3c3ccc(C)cc3)n2)cc1 ; strain or isolate: Clinical isolates ; value: 62.5 µg/mL
CCCCCOc1ccc(-c2ccc(-c3ccc(C(=O)N[C@H]4CCCNC(=O)[C@H]5CCN5C(=O)C(C(C)O)NC(=O)C(CCc5ccc(O)cc5)NC(=O)C5C[C@@H](O)CN5C(=O)C(C(C)O)NC4=O)cc3)cc2)cc1 ; strain or isolate: ATCC 62376 ; value: >100 µg/mL
CCc1ccc(-c2nc3cc(NC(=O)CN4CCOCC4)ccc3o2)cc1 ; strain or isolate: ATCC 10145 ; value: 25 µg/mL
C=CC(C)(/C=C\c1ccc(O)cc1)c1ccc(O)cc1 ; strain or isolate: KULM 83-0030 ; value: 50 µg/mL
CCCCCOc1ccc(-c2ccc(-c3ccc(C(=O)N[C@H]4CCCNC(=O)C5C[C@H](NC(=O)C[N+](C)(C)C)CN5C(=O)C(C(C)O)NC(=O)C(CCc5ccc(O)cc5)NC(=O)C5C[C@@H](O)CN5C(=O)C(C(C)O)NC4=O)cc3)cc2)cc1 ; strain or isolate: ATCC CCH442 ; value: 0.78 µg/mL
CCOc1cc2c(cc1F)n([O-])c(C)c(S(=O)(=O)c1ccccc1)[n+]2=O ; strain or isolate: Clinical isolate 5 ; value: 15.6 µg/mL
CCCCCOc1ccc(-c2ccc(-c3ccc(C(=O)N[C@H]4CCCNC(=O)C5C[C@H](N)CN5C(=O)C(CN)NC(=O)C(CCc5ccc(O)cc5)NC(=O)C5C[C@@H](O)CN5C(=O)C(C(C)O)NC4=O)cc3)cc2)cc1 ; strain or isolate: ATCC 10231 ; value: 0.78 µg/mL
N[C@H]1CCC[C@H]1C(=O)O ; strain or isolate: IAM4888 ; value: 10 µg/mL
CCCCCCCCOc1ccc(N2CCN(c3ccc(C(=O)N[C@H]4CCCNC(=O)C5C[C@H](N)CN5C(=O)C(C(C)O)NC(=O)C(Cc5ccc(N)cc5)NC(=O)C5CCCN5C(=O)C(C(C)O)NC4=O)cc3)CC2)cc1 ; strain or isolate: ATCC CCH442 ; value: 0.39 µg/mL
CCc1ccc(-c2nc3cc(NC(=O)Cc4ccc(Cl)cc4)ccc3o2)cc1 ; strain or isolate: ATCC 10145 ; value: 50 µg/mL
O/N=C(\c1ccc(Cl)cc1)c1oc2ccc(Cl)cc2c1Cn1cncn1 ; strain or isolate: Clinical isolate ; value: 25 µg/mL
CC(C)=CCC/C(C)=C/CCC(C)=CCC/C=C(\C)CCC=C(C)CCCN(C)C ; strain or isolate: S124 ; value: 50 µg/mL
O=C(CN1CCNCC1)Nc1ccc2oc(-c3ccccc3)nc2c1 ; strain or isolate: ATCC 10145 ; value: 50 µg/mL
CCCCCOc1ccc(-c2ccc(-c3ccc(C(=O)N[C@H]4CCCNC(=O)C5C[C@H](N)N5C(=O)C(C(C)O)NC(=O)C(CCc5ccc(O)cc5)NC(=O)C5C[C@@H](O)CN5C(=O)C(C(C)O)NC4=O)cc3)cc2)cc1 ; strain or isolate: ATCC CCH442 ; value: 0.2 µg/mL
COc1cc(O)c2c(c1)C(=O)c1c(cc3c(c1O)-c1c(cc(C)c(C(=O)NCC(=O)O)c1O)[C@H](OC1OC(C)C(N(C)C)C(OC4OCC(O)C(O)C4O)C1O)[C@H]3O)C2=O ; strain or isolate: ATCC 38247 (amphotericin B-resistant) ; value: 1.6 µg/mL
COc1ccc(-c2csc(N3N=C(c4cccs4)CC3c3ccc(OC)cc3)n2)cc1 ; strain or isolate: Clinical isolates ; value: 125 µg/mL
CCCCCOc1ccc(-c2ccc(-c3ccc(C(=O)N[C@H]4CCCNC(=O)C5C[C@H](NC(=O)Nc6ccccc6)CN5C(=O)C(C(C)O)NC(=O)C(CCc5ccc(O)cc5)NC(=O)C5C[C@@H](O)CN5C(=O)C(C(C)O)NC4=O)cc3)cc2)cc1 ; strain or isolate: ATCC 10231 ; value: 6.25 µg/mL
CCN(CC)CCCC(C)CCCC(C)CCCCC(C)CCCC(C)CCCN(CC)CC ; strain or isolate: S9 ; value: 50 µg/mL
Oc1ccc(-c2c[nH]cc2C(c2ccc(Cl)cc2Cl)n2ccnc2)cc1 ; value: 26 µg/mL
Cc1ccc(C2CC(c3cccs3)=NN2c2nc(-c3ccccc3)cs2)cc1 ; strain or isolate: Clinical isolates ; value: 500 µg/mL
C[C@@H](SC1COC(/C=C/C=C/c2ccc(C#N)cc2F)OC1)[C@](O)(Cn1cncn1)c1ccc(F)cc1F ; strain or isolate: CAL-0148 ; value: 0.016 µg/mL
CC(C)=CCC/C(C)=C/CCC(C)=CCC/C=C(\C)CCC=C(C)CCC[N+](C)(C)C ; strain or isolate: S124 ; value: 6.25 µg/mL
CCCCCc1ccc(C(=O)N[C@H]2CCCNC(=O)C3C[C@H](N)CN3C(=O)C(C(C)O)NC(=O)C(CCc3ccc(O)cc3)NC(=O)C3C[C@@H](O)CN3C(=O)C(C(C)O)NC2=O)cc1 ; strain or isolate: ATCC 10231 ; value: 25 µg/mL
Cn1cc(-c2ccc(Cl)cc2Cl)c(C(c2ccc(Cl)cc2Cl)n2ccnc2)c1 ; value: 2.9 µg/mL
CCCCCOc1ccc(-c2ccc(-c3ccc(C(=O)N[C@H]4CCCNC(=O)[C@@H]5C[C@H](N)CN5C(=O)[C@H](CCC(=O)O)NC(=O)C(CCc5ccc(O)cc5)NC(=O)[C@@H]5C[C@@H](O)CN5C(=O)[C@H]([C@@H](C)O)NC4=O)cc3)cc2)cc1 ; strain or isolate: ATCC 10231 ; value: 0.39 µg/mL
CCCSc1ccc2nc(NC(=O)OC)[nH]c2c1 ; setting: 24 h ; strain or isolate: 92-343 ; value: 5 µg/mL
Fc1ccc(C2CC(c3cccs3)=NN2c2nc(-c3ccccc3)cs2)cc1 ; strain or isolate: Clinical isolates ; value: 250 µg/mL
O=C(CN1CCOCC1)Nc1ccc2oc(-c3ccccc3)nc2c1 ; strain or isolate: ATCC 10145 ; value: 50 µg/mL
C[C@H]1[C@H](O)[C@@H](C)/C=C/C=C/C=C/C=C/C=C/C=C/C=C/[C@H](O[C@@H]2O[C@H](C)[C@@H](O)[C@H](N)[C@@H]2O)C[C@@H]2O[C@](O)(C[C@@H](O)C[C@@H](O)CC[C@H](O)[C@@H](O)C[C@@H](O)CC(=O)O[C@H]1C)C[C@H](O)[C@H]2C(=O)O ; strain or isolate: ATCC64553 ; value: 0.5 µg/mL
CCOc1cc2c(cc1F)n([O-])c(C)c(Cl)[n+]2=O ; strain or isolate: Clinical isolate 13 ; value: 62.5 µg/mL
CCN(CC)CCCC(C)=CCC/C(C)=C/CCC=C(C)CC/C=C(\C)CCC=C(C)C ; strain or isolate: S9 ; value: 100 µg/mL
O=C(Nc1nc2ccc(NC(=O)[C@@H]3CCC[C@H](NCc4ccc5ccccc5c4)C3)cc2s1)C1CCCC1 ; strain or isolate: ATCC 90028 ; value: 0.78 µM
c1ccc(C(c2ccc(-n3cccc3)cc2)n2ccnc2)cc1 ; value: 6.8 µg/mL
CC(=O)N1CCN(c2ccc(OC[C@H]3CO[C@](Cn4ccnc4)(c4ccc(Cl)cc4Cl)O3)cc2)CC1 ; strain or isolate: SGY-243 ; value: 0.08 µg/mL

Repeating the final 8 entries:

SMILES,setting,strain or isolate,value
Fc1ccc(C2CC(c3cccs3)=NN2c2nc(-c3ccccc3)cs2)cc1,-,Clinical isolates,250 µg/mL
O=C(CN1CCOCC1)Nc1ccc2oc(-c3ccccc3)nc2c1,-,ATCC 10145,50 µg/mL
C[C@H]1[C@H](O)[C@@H](C)/C=C/C=C/C=C/C=C/C=C/C=C/C=C/[C@H](O[C@@H]2O[C@H](C)[C@@H](O)[C@H](N)[C@@H]2O)C[C@@H]2O[C@](O)(C[C@@H](O)C[C@@H](O)CC[C@H](O)[C@@H](O)C[C@@H](O)CC(=O)O[C@H]1C)C[C@H](O)[C@H]2C(=O)O,-,ATCC64553,0.5 µg/mL
CCOc1cc2c(cc1F)n([O-])c(C)c(Cl)[n+]2=O,-,Clinical isolate 13,62.5 µg/mL
CCN(CC)CCCC(C)=CCC/C(C)=C/CCC=C(C)CC/C=C(\C)CCC=C(C)C,-,S9,100 µg/mL
O=C(Nc1nc2ccc(NC(=O)[C@@H]3CCC[C@H](NCc4ccc5ccccc5c4)C3)cc2s1)C1CCCC1,-,ATCC 90028,0.78 µM
c1ccc(C(c2ccc(-n3cccc3)cc2)n2ccnc2)cc1,-,-,6.8 µg/mL
CC(=O)N1CCN(c2ccc(OC[C@H]3CO[C@](Cn4ccnc4)(c4ccc(Cl)cc4Cl)O3)cc2)CC1,-,SGY-243,0.08 µg/mL